A mixed list of measured activities; the numbers were collected in NIAID ChemDB.

Shared fields: tests in culture; species: Rhinovirus; read-out: inhibition

Two numbers with a dash give a range or band. Rows are shuffled and stem from different studies. Percent inhibition refers to the dose given; in toxicity tests it is the harm to the cells. An empty or dashed field is not shown.

compound	dose	strain	read by	cell line	result
Cc1cc(Cl)ccc1Cn1cnc2c(N(C)C)nc(C(F)(F)F)nc21	8 µM	Serotype 30	plaque count	M-HELA	28%
O=C(Nc1ccc2c(O)c(N=Nc3ccc(N=Nc4ccc(S(=O)(=O)O)cc4)cc3)c(S(=O)(=O)O)cc2c1)c1ccccc1	10 µg/mL		cytopathic effect	Human embryonic lung cells	0%
Cc1ccc(Cn2cnc3c(N(C)C)nc(C(F)(F)F)nc32)cc1	2.5 µM	Serotype 3	plaque count	M-HELA	43%
CCOC(=O)c1csc(N2CCN(Cc3cc(C)ccc3C)CC2)n1	5.8 µg/mL	17 serotypes			71%
O=C(O)Cc1csc(/N=C2\SC[C@@H]3Cc4ccccc4CN23)n1	60 µg/mL	Serotype 31	cytopathic effect	MRC-5	80–100%
FC(F)(F)c1cccc(C2CCN(c3ccc(Br)nn3)C2)c1	32 µg/mL	17 serotypes			71%
O=S(=O)([O-])c1ccc2c(NS(=O)(=O)c3ccccc3)cc(S(=O)(=O)[O-])cc2c1	5 µg/mL		cytopathic effect	Human amnion AV3 cells	0%
CN(C)c1nc(C(F)(F)F)nc2c1ncn2Cc1ccc([N+](=O)[O-])cc1	8 µM	Serotype 15	plaque count	M-HELA	31%
O=S(=O)(O)c1ccc2cc(O)c(S(=O)(=O)O)cc2c1	50 µg/mL		cytopathic effect	Human embryonic lung cells	70%
CSc1ccc(Cn2cnc3c(N(C)C)nc(C(F)(F)F)nc32)cc1	8 µM	Serotype 13	plaque count	M-HELA	35%
Cc1cccc(N2CCN(c3ccc(Br)nn3)CC2)c1	1.4 µg/mL	100 serotypes			53%
CN(C)c1nc(C(F)(F)F)nc2c1ncn2Cc1cccc(F)c1	8 µM	Serotype 8	plaque count	M-HELA	45%
N#Cc1cc([N+](=O)[O-])ccc1Oc1ccc(Cl)c(Cl)c1	3.125 µg/mL	TYPE 1A		VERO	75%
NS(=O)(=O)O	10 µg/mL		cytopathic effect	Human embryonic lung cells	0%
Cc1cc(CCCCCCCOc2ccc(C3=NCCO3)cc2)on1	0.203 µg/mL	100 serotypes			18%
Nc1c(S(=O)(=O)O)cc2cc(S(=O)(=O)O)cc(O)c2c1O	5 µg/mL		cytopathic effect	Human amnion AV3 cells	30%
CN(C)c1nc(C(F)(F)F)nc2c1ncn2Cc1ccc(S(C)(=O)=O)cc1	8 µM	Serotype 8	plaque count	M-HELA	36%
Nc1c(S(=O)(=O)[O-])cc2cc(S(=O)(=O)[O-])ccc2c1O	5 µg/mL		cytopathic effect	Human amnion AV3 cells	0%
CCOc1cc(O)c(C(=O)/C=C/c2ccc(OC)cc2)c(OC)c1	0.036 µg/mL	17 serotypes			18%
Cc1cc(-c2ccc(N=Nc3ccc4c(S(=O)(=O)O)cc(S(=O)(=O)O)c(N)c4c3O)c(C)c2)ccc1N=Nc1ccc2c(S(=O)(=O)O)cc(S(=O)(=O)O)c(N)c2c1O	50 µg/mL		cytopathic effect	Human embryonic lung cells	20%
Cc1cc(Cn2cnc3c(N(C)C)nc(C(F)(F)F)nc32)ccc1Cl	8 µM	Serotype 18	plaque count	M-HELA	28%